PubChem BioAssay AID1259414 | Drosophila RNAi Screening Center | 2018
Screen: 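Host factors increasing or decreasing Wolbachia levels in cultured fly cells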 (primary screen). System: Drosophila JW18 cells infected with Wolbachia. Reagents: long dsRNA against Drosophila genes, 0.25 µg dsRNA per well of a 384-well plate. Duration: 5 days. Treatment: cells persistently infected with Wolbachia before knock-down; no added drug. Detection: 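Automated imaging of bacterial rRNA staining divided by host cell count, reported as plate-normalised robust z-score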. Scale: Wolbachia per cell robust z: higher = more Wolbachia per host cell than the plate typical. Call rule: 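Active if absolute robust z reaches 1.5 in two or more of three replicates, leaving out multi- or no-target dsRNAs, genes unexpressed in JW18 and A1 wells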.
The deposit covers about 24,000 reagents; below is an unselected part of those that have a named target and a result. Over the whole deposit, about 1,210 (5%) were called active. 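Inactive calls also include excluded dsRNAs with several or no targets, genes unexpressed in JW18, and well A1, regardless of score.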

Rim2 (Replication in mitochondria 2) [DRSC00520]
- Wolbachia per cell robust z, rep 1: -0.595
- Wolbachia per cell robust z, rep 2: 0.037
- Wolbachia per cell robust z, rep 3: 0.727
- activity call: inactive

Rim2 (Replication in mitochondria 2) [DRSC22699]
- Wolbachia per cell robust z, rep 1: -0.767
- Wolbachia per cell robust z, rep 2: -1.94
- Wolbachia per cell robust z, rep 3: -0.488
- activity call: inactive

pippin [DRSC04489]
- Wolbachia per cell robust z, rep 1: -0.0137
- Wolbachia per cell robust z, rep 2: -1.78
- Wolbachia per cell robust z, rep 3: -1.45
- activity call: inactive

CG12995 [DRSC19515]
- Wolbachia per cell robust z, rep 1: -0.487
- Wolbachia per cell robust z, rep 2: -0.5
- Wolbachia per cell robust z, rep 3: 0.268
- activity call: inactive

CG12995 [DRSC27519]
- Wolbachia per cell robust z, rep 1: -0.479
- Wolbachia per cell robust z, rep 2: 0.353
- Wolbachia per cell robust z, rep 3: -0.229
- activity call: inactive

yellow-d [DRSC04589]
- Wolbachia per cell robust z, rep 1: 0.966
- Wolbachia per cell robust z, rep 2: -1.13
- Wolbachia per cell robust z, rep 3: 0.617
- activity call: inactive

yellow-d [DRSC26933]
- Wolbachia per cell robust z, rep 1: 0.287
- Wolbachia per cell robust z, rep 2: 0.158
- Wolbachia per cell robust z, rep 3: 1.15
- activity call: inactive

CG4880 [DRSC19923]
- Wolbachia per cell robust z, rep 1: -5.24
- Wolbachia per cell robust z, rep 2: 0.414
- Wolbachia per cell robust z, rep 3: 0.235
- activity call: inactive

Jon74E (Jonah 74E) [DRSC10617]
- Wolbachia per cell robust z, rep 1: 0.261
- Wolbachia per cell robust z, rep 2: -0.929
- Wolbachia per cell robust z, rep 3: 0.404
- activity call: inactive

Jon74E (Jonah 74E) [DRSC23947]
- Wolbachia per cell robust z, rep 1: -1.63
- Wolbachia per cell robust z, rep 2: 1.16
- Wolbachia per cell robust z, rep 3: -0.722
- activity call: inactive

side-VIII (sidestep VIII) [DRSC05880]
- Wolbachia per cell robust z, rep 1: 0.0765
- Wolbachia per cell robust z, rep 2: 0.906
- Wolbachia per cell robust z, rep 3: 1.11
- activity call: inactive

side-VIII (sidestep VIII) [DRSC05883]
- Wolbachia per cell robust z, rep 1: 0.706
- Wolbachia per cell robust z, rep 2: 1.54
- Wolbachia per cell robust z, rep 3: 1.43
- activity call: inactive

side-VIII (sidestep VIII) [DRSC06157]
- Wolbachia per cell robust z, rep 1: -4.88
- Wolbachia per cell robust z, rep 2: -0.725
- Wolbachia per cell robust z, rep 3: 0.939
- activity call: inactive

side-VIII (sidestep VIII) [DRSC23187]
- Wolbachia per cell robust z, rep 1: 0.455
- Wolbachia per cell robust z, rep 2: 0.315
- Wolbachia per cell robust z, rep 3: 0.908
- activity call: inactive

side-VIII (sidestep VIII) [DRSC28353]
- Wolbachia per cell robust z, rep 1: -0.447
- Wolbachia per cell robust z, rep 2: 0.517
- Wolbachia per cell robust z, rep 3: 0.317
- activity call: inactive

Part of the list above, reduced to “Wolbachia per cell robust z, rep 2”.
yellow-d [DRSC26933]	0.158
CG4880 [DRSC19923]	0.414
Jon74E (Jonah 74E) [DRSC10617]	-0.929

Further reagents follow.
CG34184 [DRSC38644]
- Wolbachia per cell robust z, rep 1: -0.928
- Wolbachia per cell robust z, rep 2: 0.000668
- Wolbachia per cell robust z, rep 3: 0.647
- activity call: inactive

foi (fear-of-intimacy) [DRSC10719]
- Wolbachia per cell robust z, rep 1: 3.54
- Wolbachia per cell robust z, rep 2: 3.91
- Wolbachia per cell robust z, rep 3: 7.69
- activity call: active

foi (fear-of-intimacy) [DRSC29596]
- Wolbachia per cell robust z, rep 1: 0.696
- Wolbachia per cell robust z, rep 2: 3.06
- Wolbachia per cell robust z, rep 3: 2.69
- activity call: active

CG9287 [DRSC03186]
- Wolbachia per cell robust z, rep 1: -3.05
- Wolbachia per cell robust z, rep 2: -3.3
- Wolbachia per cell robust z, rep 3: -3.74
- activity call: inactive

CG9287 [DRSC22790]
- Wolbachia per cell robust z, rep 1: -1.57
- Wolbachia per cell robust z, rep 2: -1.89
- Wolbachia per cell robust z, rep 3: -1.33
- activity call: inactive

polybromo [DRSC14307]
- Wolbachia per cell robust z, rep 1: 0.255
- Wolbachia per cell robust z, rep 2: 0.396
- Wolbachia per cell robust z, rep 3: -0.309
- activity call: inactive

flap (flapper) [DRSC03918]
- Wolbachia per cell robust z, rep 1: -0.344
- Wolbachia per cell robust z, rep 2: -0.436
- Wolbachia per cell robust z, rep 3: -0.524
- activity call: inactive

flap (flapper) [DRSC04087]
- Wolbachia per cell robust z, rep 1: 0.523
- Wolbachia per cell robust z, rep 2: -0.107
- Wolbachia per cell robust z, rep 3: -0.376
- activity call: inactive

CG4250 [DRSC04455]
- Wolbachia per cell robust z, rep 1: 0.509
- Wolbachia per cell robust z, rep 2: -0.4
- Wolbachia per cell robust z, rep 3: -0.473
- activity call: inactive
